The assay addresses sE2 wild-type (UniProt P27958). Description: BLI. (In general: Biolayer interferometry detects binding as a change in optical thickness at a sensor tip.)

One may read the Kd as the constant that tells how readily two partners part at equilibrium. Read a low Kd as a tighter complex. AR3A came in with a dissociation constant Kd of 1.8 nM.

(Values after patent publication US20220054630A1.)
